Pooled drug test results. Numbers come from NIAID ChemDB, via PubChem.

All rows: host cell toxicity; cell line: MT-4; read-out: CC50

An empty or dashed field is not shown.

SMILES	method	result
Cc1cc(C#N)cc(C)c1Oc1ccnc(S(=O)(=O)CC(=O)Nc2cccc([N+](=O)[O-])c2)n1	MTT	>23.6 µM
NC1=Nc2c(ncn2CCCCCP(=O)(O)O)C(=O)C1	MTT	>320 µM
Cc1cn([C@H]2C[C@H](N=[N+]=[N-])[C@@H](CO)O2)c(=O)[nH]c1=O	-	3.7 µM
Cc1cn([C@@H]2O[C@@H](CO[Si](C)(C)C(C)(C)C)C3(OS(=O)(=O)C=C3N)[C@@H]2O[Si](C)(C)C(C)(C)C)c(=O)[nH]c1=O	trypan blue	83 µg/mL
Cc1cc(C)nc(NS(=O)(=O)c2ccc(N=C3C(=O)Nc4ccc(Cl)cc43)cc2)n1	-	>125 µg/mL
CCCCCCCCCCCCCCCCCCOC1OC(COS(=O)(=O)O)C(OC2OC(COS(=O)(=O)O)C(OC3OC(COS(=O)(=O)O)C(OC4OC(COS(=O)(=O)O)C(OC5OC(COS(=O)(=O)O)C(OC6OC(COS(=O)(=O)O)C(OS(=O)(=O)O)C(OS(=O)(=O)O)C6O)C(OS(=O)(=O)O)C5O)C(O)C4OS(=O)(=O)O)C(O)C3OS(=O)(=O)O)C(OS(=O)(=O)O)C2O)C(OS(=O)(=O)O)C1O	-	748 µg/mL
O=C1Cc2ccccc2C(=O)N1O	MTT	27.05 µM
CC(C)(C)[Si](C)(C)OCC1OC(n2nncc2C(=O)NC2CC2)C(O[Si](C)(C)C(C)(C)C)C12OS(=O)(=O)C=C2N	-	168 µM
Cc1cn([C@H]2C=C[C@@H](COP(=O)(OCc3ccccc3)OCc3ccccc3)O2)c(=O)[nH]c1=O	-	74 µM
COc1cc(O)c2c(=O)c(Oc3ccccc3)coc2c1	-	>100 µg/mL
O=S(=O)(O)OCC1OC(O)C(OS(=O)(=O)O)C(OS(=O)(=O)O)C1OC1OC(COS(=O)(=O)O)C(OC2OC(COS(=O)(=O)O)C(OC3OC(COS(=O)(=O)O)C(OC4OC(COS(=O)(=O)O)C(OS(=O)(=O)O)C(OS(=O)(=O)O)C4OS(=O)(=O)O)C(OS(=O)(=O)O)C3OS(=O)(=O)O)C(OS(=O)(=O)O)C2OS(=O)(=O)O)C(OS(=O)(=O)O)C1OS(=O)(=O)O	-	>1000 µg/mL
CC(C)Nc1cccnc1N1CCN(C(=O)c2cc3cc(NS(C)(=O)=O)ccc3[nH]2)CC1	MTT	>36.19 µM
CN(C)C(=O)Oc1nsnc1-c1cc(Cl)ccc1Cl	-	111 µM
Cc1c(CC23CC4CC(CC(C4)C2)C3)nc(SCC(=O)Nc2ccc(C(N)=O)cc2)[nH]c1=O	MTT / absorbance	29.15 µM
CC(C)=CCc1c(O)cc(O)c2c1OC(c1ccc(O)c(O)c1)CC2=O	-	60 µg/mL
CCN(CC)C(=O)Oc1nsnc1-c1c(Cl)cccc1Cl	-	314 µM
Cc1cn([C@H]2C=C[C@@H](CO)O2)c(=O)[nH]c1=O	-	47 µM
Cc1ccnc2c1NC(=O)c1cccnc1N2C1CC1	MTT	>15 µM
CC(=O)O[C@@H]1[C@H](n2cc(C)c(=O)[nH]c2=O)O[C@@H](COC(=O)c2ccccc2)C12OS(=O)(=O)C=C2N	trypan blue	86 µg/mL
S=C(NCCc1ccccc1)Nc1nccs1	-	380 µM
O=c1[nH]cnc2c1ncn2[C@H]1CC[C@@H](CO)O1	MTT	>212 µM
Cc1ccc(NC(=S)NCCc2c(F)cccc2F)nc1	-	325 µM
O=C(O)P(=O)(O)O	-	3493 µM
Cc1cn([C@@H]2O[C@H](CO[Si](C)(C)C(C)(C)C)C3(OS(=O)(=O)C=C3N)[C@H]2O[Si](C)(C)C(C)(C)C)c(=O)n(C)c1=O	-	230 µM
Nc1ccn([C@H]2CC[C@@H](CO)O2)c(=O)n1	MTT	>95 µM
CN(C)C(=O)c1cnnn1[C@@H]1O[C@H](CO[Si](C)(C)C(C)(C)C)C2(OS(=O)(=O)C=C2N)[C@H]1O[Si](C)(C)C(C)(C)C	-	20 µM
COc1ccc(-c2coc3cc(O)cc(O)c3c2=O)cc1	-	60 µg/mL
Cc1cn([C@H]2C[C@H](N=[N+]=[N-])[C@@H](CO)O2)c(=O)[nH]c1=O	-	3.2 µM
O=C(O)c1cn(CCO)c2ccc(Cc3ccccc3)cc2c1=O	MTT	49 µM
Cc1cc(C)nc(NS(=O)(=O)c2ccc(N=C3C(=O)Nc4ccc(Br)cc43)cc2)n1	-	>125 µg/mL
CCCCCCCCCCCCCCCCOC1OC(COS(=O)(=O)O)C(O)C(OC2OC(COS(=O)(=O)O)C(OS(=O)(=O)O)C(OC3OC(COS(=O)(=O)O)C(O)C(OC4OC(COS(=O)(=O)O)C(OS(=O)(=O)O)C(OC5OC(COS(=O)(=O)O)C(OS(=O)(=O)O)C(OS(=O)(=O)O)C5OS(=O)(=O)O)C4OS(=O)(=O)O)C3OS(=O)(=O)O)C2OS(=O)(=O)O)C1OS(=O)(=O)O	-	>471 µg/mL
COc1cccc(F)c1CCNC(=S)Nc1nccs1	-	48 µM
Cc1cn([C@H]2C[C@H](N=[N+]=[N-])[C@@H](CO)O2)c(=O)[nH]c1=O	-	>100 µM
CC(C)=CCc1c(O)cc2c(c1O)C(=O)CC(c1ccccc1)O2	-	>100 µg/mL
O=C1Nc2cccnc2N(C2CC2)c2ncccc21	-	1000 µM
CC(C)c1nc(C(=O)NCc2ccc(F)cc2)c(O)c(=O)n1C	MTT	61 µM
O=c1[nH]cnc2c1ncn2[C@H]1CC[C@@H](CO)O1	MTT	>1000 µM
COc1ccc(Sc2nc(N)nc3c2ncn3CCOCP(=O)(OCC(F)(F)F)OCC(F)(F)F)cc1	-	>34 µM
CCCN(C)C(=O)Oc1nsnc1-c1c(Cl)cccc1Cl	-	28 µM
Cc1cn([C@H]2C[C@H](N=[N+]=[N-])[C@@H](CO)O2)c(=O)[nH]c1=O	-	>65.9 µg/mL
CCc1csc(NC(=S)NCCc2ccccc2)n1	-	343 µM
CC(C)(C)[Si](C)(C)OCC1OC(n2nncc2C(=O)NC2CCCC2)C(O[Si](C)(C)C(C)(C)C)C12OS(=O)(=O)C=C2N	-	>250 µM
S=c1[nH]c2cc(Cl)cc3c2n1CCN1CCCCC31	-	>200 µM
CN(C)C(=O)Oc1nsnc1-c1cccc(Cl)c1Cl	-	127 µM
Cc1cn([C@@H]2O[C@@H](COC(=O)c3ccccc3)C3(OS(=O)(=O)C=C3N)C2O[Si](C)(C)C(C)(C)C)c(=O)[nH]c1=O	trypan blue	88 µg/mL
Cc1cn([C@H]2C[C@H](N=[N+]=[N-])[C@@H](CO)O2)c(=O)[nH]c1=O	-	>100 µM
Cc1cn([C@@H]2O[C@H](CO[Si](C)(C)C(C)(C)C)[C@@]3(OS(=O)(=O)C=C3N)[C@H]2O[Si](C)(C)C(C)(C)C)c(=O)[nH]c1=O	-	14 µM
C=CC(C)(C)c1cc(/C=C/C(=O)c2ccc(O)cc2)c(OC)cc1O	-	15 µg/mL
CN(C)C(=O)Oc1nsnc1-c1ccc(Cl)cc1	-	353 µM
Cc1ccc(NC(=O)CSc2nc(CC34CC5CC(CC(C5)C3)C4)c(C)c(=O)[nH]2)c([N+](=O)[O-])c1	MTT / absorbance	23.08 µM
Cc1cn([C@@H]2O[C@H](CC3CCCCC3)C3(OS(=O)(=O)C=C3N)[C@H]2OC(=O)c2ccccc2)c(=O)[nH]c1=O	trypan blue	6.4 µg/mL
O=c1[nH]c2cc(NS(=O)(=O)c3ccc(-c4ccccc4)cc3)ccc2c(=O)n1O	MTT	305.3 µM
CCc1c(CC23CC4CC(CC(C4)C2)C3)nc(SCC(=O)Nc2ccc(C(N)=O)cc2)[nH]c1=O	MTT / absorbance	≥33.5 µM
Fc1cccc(F)c1CCNC(=S)Nc1ccc(Br)cn1	-	269 µM
Cc1cn([C@H]2C=C[C@@H](COP(=O)(O)OCc3ccccc3)O2)c(=O)[nH]c1=O	-	24 µM

A second listing of 7 rows from above:

SMILES,method,result
CCCN(C)C(=O)Oc1nsnc1-c1c(Cl)cccc1Cl,-,28 µM
O=c1[nH]c2cc(NS(=O)(=O)c3ccc(-c4ccccc4)cc3)ccc2c(=O)n1O,MTT,305.3 µM
COc1cc(O)c2c(=O)c(Oc3ccccc3)coc2c1,-,>100 µg/mL
Cc1cn([C@H]2C[C@H](N=[N+]=[N-])[C@@H](CO)O2)c(=O)[nH]c1=O,-,>100 µM
CCCCCCCCCCCCCCCCOC1OC(COS(=O)(=O)O)C(O)C(OC2OC(COS(=O)(=O)O)C(OS(=O)(=O)O)C(OC3OC(COS(=O)(=O)O)C(O)C(OC4OC(COS(=O)(=O)O)C(OS(=O)(=O)O)C(OC5OC(COS(=O)(=O)O)C(OS(=O)(=O)O)C(OS(=O)(=O)O)C5OS(=O)(=O)O)C4OS(=O)(=O)O)C3OS(=O)(=O)O)C2OS(=O)(=O)O)C1OS(=O)(=O)O,-,>471 µg/mL
Fc1cccc(F)c1CCNC(=S)Nc1ccc(Br)cn1,-,269 µM
Cc1ccc(NC(=O)CSc2nc(CC34CC5CC(CC(C5)C3)C4)c(C)c(=O)[nH]2)c([N+](=O)[O-])c1,MTT / absorbance,23.08 µM

CCn is the concentration with n% toxicity to the cells. Neighbouring rows are from separate reports.